From patent US20240360203A1

B1: Reference Antibody Fab (Fab, V domains shown)
VH: EVQLVESGAEVKKPGESLKISCKGSGYTFTRYWIGWVRQMPGKGLEWMGIIYPGDSDTRYSPSFQGHVTISADKSISTAYLQWNSLKASDTAMYYCARLPQYCSNGVCQRWFDPWGQGTLVTVSS
VL: EIVLTQSPSSVSASVGDRVTITCRASQGISSWLAWYQQKPGKAPKLLIYAASSLQSGVPSRFSGSGSGTDFTLTISSLQPEDFATYYCQQGNSFPYTFGQGTNLEIK
B2: Reference Antibody (antibody, V domains shown)
VH: B1 VH
VL: B1 VL

Legend:
[1] = target: T1, SARS-CoV-2 spike S2 peptide 1143-1162, biotinylated (SARS-CoV-2); test: SPR, Fab over captured biotin-peptide, 25 C
[2] = target: T1, SARS-CoV-2 spike S2 peptide 1143-1162, …; test: DELFIA on captured biotin-peptide; set-up: unit not given beside the values

Row | Binder | Kd [1] [nM] | koff [1] [s⁻¹] | kon [1] [M⁻¹ s⁻¹] | AUC [2]
1 | B1 | 64.2 | 0.0306 | 477000 | –
2 | B2 | – | – | – | 3.25e+06
